Measurements from “University of Dundee, Small-Polar-MMV Screening Library” (2021), ChEMBL document CHEMBL3988442.

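Whole-cell growth test on Mycobacterium tuberculosis, read after 4 days in a medium based on cholesterol and the lipid DPPC; the read-out is not stated. Concentration: 500 µM. Direction is inferred from retests: higher values go with more growth inhibition. Size under these conditions: about 18,000 compounds, about 900 of them at 50% or above in at least one test.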

Results are given as percent effect.
How 0% and 100% were set is not recorded. Most values in the screen are low, and negative values occur.
This is part of a subset picked to be rich in strong results.

{"compound": "CC(C)(N)CN1CCCC1", "percent effect": 4.301}
{"compound": "Cc1noc(OCCOCC2CCCO2)n1", "stereo": "stereo not shown", "percent effect": 18.39}
{"compound": "O=C(NCc1cc[nH]n1)NCC(O)c1cccc(Cl)c1", "stereo": "stereo not shown", "percent effect": 3.154}
{"compound": "CN(C)C(CN)c1ccc(F)cc1", "stereo": "stereo not shown", "percent effect": 26.7}
{"compound": "CNCc1nnc(C)o1", "percent effect": -6.661}
{"compound": "COc1ccc(-c2nc(CCN)co2)cc1", "percent effect": 78.68}
{"compound": "NCCCc1ccccc1F", "percent effect": -25.23}
{"compound": "CCNC(=O)c1ccn(-c2ccccc2)n1", "percent effect": 64.13}
{"compound": "Cc1ccccc1NC(=O)Cn1cccn1", "percent effect": -8.79}
{"compound": "COC(=O)N1CCCC(NC(=O)N2CCC2)C1", "stereo": "stereo not shown", "percent effect": 1.131}
{"compound": "N[C@H]1CN(S(=O)(=O)c2cccc(Cl)c2)C[C@@H]1C1CC1", "percent effect": 50.92}
{"compound": "Cc1ccnc(CC2CCCN2)c1", "stereo": "stereo not shown", "percent effect": 9.159}
{"compound": "CC(C)(C)CCC(N)c1ncc[nH]1", "stereo": "stereo not shown", "percent effect": 11.83}
{"compound": "Cc1cc(C)c(C#N)c(N2CCOCC(CO)C2)n1", "stereo": "stereo not shown", "percent effect": 51.12}
{"compound": "Cc1cc(CO)no1", "percent effect": -11.44}
{"compound": "COC(=O)c1n[nH]c2ccc(NC(=O)C(C)C)cc12", "percent effect": 1.823}
{"compound": "COc1ccc(C(=O)Nc2cc(Br)c(=O)n(C)c2)cc1", "percent effect": 20.42}
{"compound": "Cc1nc(-c2c[nH]c(C(=O)N3CCCC3)c2)cs1", "percent effect": 95.21}
{"compound": "Cc1cccc(C2(O)CCNCC2)c1C", "percent effect": 3.315}
{"compound": "NCCc1ccnc2ccccc12", "percent effect": -8.211}
{"compound": "COc1ccc(CSCC(N)=O)cc1Br", "percent effect": 63.17}
{"compound": "COC(=O)CNc1ccccc1N1CCC(O)CC1", "percent effect": -4.922}
{"compound": "O=S(=O)(N1CCCCCC1)N1CCNCC1", "percent effect": -0.8557}
{"compound": "CC(CN1CCOCC1)NC(=O)NC1CC1", "stereo": "stereo not shown", "percent effect": -4.176}
{"compound": "CNC1CCN(c2cc(OC)cc(OC)c2)C1", "stereo": "stereo not shown", "percent effect": 52.88}
{"compound": "Cc1noc(C)c1CN1CCC(C(=O)NC2CC2)CC1", "percent effect": -8.952}
{"compound": "CCOCCN1CCN(Cc2cnn(C)c2)CC1C", "stereo": "stereo not shown", "percent effect": -10.49}
{"compound": "Cc1ccccc1CNC(=O)CCNS(C)(=O)=O", "percent effect": 0.6089}
{"compound": "CN(Cc1nnc(N)o1)C(=O)c1ccccc1", "percent effect": 11.76}
{"compound": "NC(=O)CNC(=O)c1cc(Cl)ccc1OC1CCCC1", "percent effect": -4.744}
{"compound": "NC(=O)CN(C(=O)c1cccc(Cl)c1)c1ccccc1", "percent effect": 9.806}
{"compound": "COc1cccc([C@H]2C[C@H](N)C2)c1", "percent effect": 18.83}
{"compound": "CC(C)n1cc(S(=O)(=O)N2CCC3(CCOC3)C2)cn1", "stereo": "stereo not shown", "percent effect": 9.031}
{"compound": "COCc1noc(CN2CC[C@](C)(O)C(C)(C)C2)n1", "percent effect": -71.71}
{"compound": "COCCCNC(=O)C1=Cc2ccccc2OC1", "percent effect": 81}
{"compound": "COc1cccc(CN2CCC3(CC2)OCC(C)O3)c1", "stereo": "stereo not shown", "percent effect": 57.39}
{"compound": "O=C1CC(C(=O)NCCNC(=O)c2ccccc2)CN1", "stereo": "stereo not shown", "percent effect": -8.857}
{"compound": "NC(=O)C1(c2ccccc2F)CCCC1", "percent effect": 1.655}
{"compound": "O=C(COc1ccc(C(F)(F)F)cc1)NCCCO", "percent effect": 29.73}
{"compound": "CSc1cccc(N(C)C(=O)C(N)c2ccccc2)c1", "stereo": "stereo not shown", "percent effect": 55.03}
{"compound": "N#Cc1cc(F)ccc1NC(=O)N1CCC(O)CC1", "percent effect": 2.13}
{"compound": "Cc1nnc(CN2CCC(NC(=O)C3CC3)CC2)o1", "percent effect": -12.82}
{"compound": "O=C(Cn1cnnn1)NCC1SCCc2ccccc21", "stereo": "stereo not shown", "percent effect": -0.07561}
{"compound": "OCCCNCC(F)(F)F", "percent effect": -0.3025}
{"compound": "COc1cc(C(=O)NC(C)(C)CC(N)=O)sc1Br", "percent effect": -3.771}
{"compound": "NCCc1nsc2ccccc12", "percent effect": 69.27}
{"compound": "Cc1cnc(C(=O)N=c2sccn2C)cn1", "percent effect": -1.867}
{"compound": "O=C(NCc1nccs1)c1ccc(F)cc1F", "percent effect": 31.84}
{"compound": "NCc1noc(-c2cccs2)n1", "percent effect": 17.7}
{"compound": "CC(=O)c1cccc(OCC(=O)Nc2cc(C)on2)c1", "percent effect": 4.973}
{"compound": "CN1C(=O)c2ccc(C(=O)NC3CC3)cc2C1=O", "percent effect": 61.33}

Some entries from above, unchanged:

For COc1cccc([C@H]2C[C@H](N)C2)c1 the result was 18.83%.
For COC(=O)N1CCCC(NC(=O)N2CCC2)C1 (stereo not shown) the result was 1.131%.
For Cc1cc(CO)no1 the result was -11.44%.